A mixed list of measured activities; the numbers were collected in NIAID ChemDB.

All rows: tests in culture; agent: Candida parapsilosis; read by: broth dilution; measure: MIC

Rows are shuffled and stem from different studies. Blank or dashed fields: not listed here.

SMILES	setting	strain	result
C[C@H]1[C@H](O)[C@@H](C)/C=C/C=C/C=C/C=C/C=C/C=C/C=C/[C@H](O[C@@H]2O[C@H](C)[C@@H](O)[C@H](N)[C@@H]2O)C[C@@H]2O[C@](O)(C[C@@H](O)C[C@@H](O)CC[C@H](O)[C@@H](O)C[C@@H](O)CC(=O)O[C@H]1C)C[C@H](O)[C@H]2C(=O)O		22019	0.125 µg/mL
O=C(/C=C/c1ccc(Cl)cc1Cl)c1c[nH]c2ccccc12		NRRL Y-12696	25 µg/mL
Clc1ccc(Nc2nnc(-c3cn4ccccc4n3)o2)cc1		ATCC 22019	32 µg/mL
OC(CCn1ccnc1)c1cccc(C(O)c2ccc(Cl)cc2)c1		RTCC 1079	>64 µg/mL
Cc1nn2c(-c3ccncc3)nnc2s/c1=N/Nc1ccc(F)cc1		ATCC 22019	6.25 µg/mL
C[C@H]1[C@H](O)[C@@H](C)/C=C/C=C/C=C/C=C/C=C/C=C/C=C/[C@H](O[C@@H]2O[C@H](C)[C@@H](O)[C@H](N)[C@@H]2O)C[C@@H]2O[C@](O)(C[C@@H](O)C[C@@H](O)CC[C@H](O)[C@@H](O)C[C@@H](O)CC(=O)O[C@H]1C)C[C@H](O)[C@H]2C(=O)O		ATCC 22019	0.0625 µg/mL
Nc1scc2c1c(=O)oc1ccc3ccccc3c12		ATCC 22019	16 µg/mL
C/C(=N\NC([S-])=Nc1ccccc1Cl)c1ccccn1.CCC[CH2][Sn+3]		ATCC 22019	58.13 µM
O=c1cc(-c2ccc(O)c(O)c2)oc2cc(O)c([C@@H]3O[C@H](CO)[C@@H](O)[C@H](O)[C@H]3O)c(O)c12		ATCC 22019	125 µg/mL
CC1=C2C3=C4[C@@](C)(C(=O)[C@]2(O)OC1=O)[C@@H]1C[C@@H]1[C@@]4(O)C[C@@H]1[C@]32OC(=O)C3=C2C[C@H]2[C@](O)(COC(=O)/C(C)=C/COC(=O)CCC(=O)OC3)[C@H]3C[C@H]3[C@]12C		ATCC 22019	>256 µg/mL
CCCCCCCCCCCCCCCC(=O)NC(CCCCN)C(=O)NC(CCCCN)C(N)=O		ATCC 4796	1 µg/mL
CNC(=S)NNC(=O)c1cn2ccccc2n1		ATCC 22019	64 µg/mL
COC(=O)/C(C)=C1\C(=O)[C@H](O)[C@]2(C)C3=C1[C@]14OC(=O)C5=C1C[C@H]1[C@](O)(COC(=O)/C(C)=C/COC(=O)CCC(=O)OC5)[C@H]5C[C@H]5[C@]1(C)[C@@H]4C[C@]3(O)[C@H]1C[C@H]12		ATCC 22019	128 µg/mL
O=C(NNC(=S)Nc1ccc(F)cc1)c1cn2ccccc2n1		ATCC 22019	64 µg/mL
CCC(C)CC(C)CCCCCCCCC(=O)N[C@H]1C[C@@H](O)[C@H](NCCN)NC(=O)[C@@H]2[C@@H](O)CCN2C(=O)[C@H]([C@H](O)CCN)NC(=O)[C@H]([C@H](O)[C@@H](O)c2ccc(O)cc2)NC(=O)[C@@H]2C[C@@H](O)CN2C(=O)[C@H]([C@@H](C)O)NC1=O		9150	1 µg/mL
CCC(C)CC(C)CCCCCCCCC(=O)N[C@H]1C[C@@H](O)[C@H](NCCN)NC(=O)[C@@H]2[C@@H](O)CCN2C(=O)[C@H]([C@H](O)CCN)NC(=O)[C@H]([C@H](O)[C@@H](O)c2ccc(O)cc2)NC(=O)[C@@H]2C[C@@H](O)CN2C(=O)[C@H]([C@@H](C)O)NC1=O		C231	0.125 µg/mL
Nn1c(SCC(O)(Cn2cncn2)c2ccc(Cl)cc2Cl)nnc1-c1ccccc1		ATCC 22019	>64 µg/mL
Cc1ccc(N2C(=O)CS/C2=N/NC(=O)c2cn3ccccc3n2)cc1		ATCC 22019	32 µg/mL
Nn1c(SCC(O)(Cn2cncn2)c2ccc(Cl)cc2Cl)nnc1-c1ccc(O)cc1		ATCC 22019	>64 µg/mL
CCNC(=S)NNC(=O)c1cn2ccccc2n1		ATCC 22019	64 µg/mL
O=C(CCn1ccnc1)c1cccc(C(O)c2ccc(Br)cc2)c1		RTCC 1018	64 µg/mL
O=C1C(=O)c2ccccc2C2=C1CC(CI)O2		Clinical isolate	64 µg/mL
O=C(NNC(=S)Nc1ccc(Br)cc1)c1cn2ccccc2n1		ATCC 22019	64 µg/mL
CCC[CH2][Sn+3].Fc1ccccc1N=C([S-])N/N=C(\c1ccccc1)c1ccccn1		ATCC 22019	107.4 µM
Cc1ccc(N2N=C(c3c[nH]c4ccccc34)CC2c2cc(Cl)cc(Cl)c2)cc1		NRRL Y-12696	100 µg/mL
CCCCCCCCCCCCCCCC(=O)NCCCN		ATCC 22019	4 µg/mL
CCC(C)n1ncn(-c2ccc(N3CCN(c4ccc(OC[C@H]5CO[C@](Cn6cncn6)(c6ccc(Cl)cc6Cl)O5)cc4)CC3)cc2)c1=O		ATCC 22019	1 µg/mL
Cc1nn2c(-c3ccncc3)nnc2s/c1=N/Nc1ccc(S(N)(=O)=O)cc1		ATCC 22019	25 µg/mL
CC(C)(O)c1cn(-c2ccc(Cl)cc2)nn1		URM 4607	128 µg/mL
Cc1ccc(N2N=C(c3c[nH]c4ccccc34)CC2c2c(Cl)cccc2Cl)cc1		NRRL Y-12696	200 µg/mL
Nn1c(SCC(O)(Cn2cncn2)c2ccc(F)cc2F)nnc1-c1ccc(F)cc1		ATCC 22019	>64 µg/mL
C[C@@H](c1ncncc1F)[C@](O)(Cn1cncn1)c1ccc(F)cc1F		ATCC 22019	0.0312 µg/mL
C[C@H]1[C@H](O)[C@@H](C)/C=C/C=C/C=C/C=C/C=C/C=C/C=C/[C@H](O[C@@H]2O[C@H](C)[C@@H](O)[C@H](N)[C@@H]2O)C[C@@H]2O[C@](O)(C[C@@H](O)C[C@@H](O)CC[C@H](O)[C@@H](O)C[C@@H](O)CC(=O)O[C@H]1C)C[C@H](O)[C@H]2C(=O)O		ATCC 22019	0.5 µg/mL
Cc1ccc(N/N=c2/sc3nnc(-c4ccncc4)n3nc2C)cc1		ATCC 22019	>100 µg/mL
Cc1ccc(C(O)c2cccc(C(O)CCn3ccnc3)c2)cc1		RTCC 1079	>64 µg/mL
Nc1[nH]c(=O)ncc1F	48 h	NBRC 1396	0.125 µg/mL
COC(=O)/C(C)=C1\C(=O)[C@H](O)[C@]2(C)C3=C(C[C@@H]4[C@]5(OC(=O)C6=C5C[C@H]5[C@](O)(COC(=O)/C(C)=C/COC(=O)CCC(=O)OC6)[C@H]6C[C@H]6[C@]45C)[C@H]31)[C@H]1C[C@H]12		ATCC 22019	64 µg/mL
O=C(CCn1ccnc1)c1cccc2ccccc12		RTCC 1079	64 µg/mL
O=c1c(N2CCOCC2)c(N2CCN(S(=O)(=O)Cc3ccccc3)CC2)cnn1-c1ccccc1		C231	200 µg/mL
OC(CCn1ccnc1)c1ccc(-c2ccccc2)cc1		RTCC 1018	>64 µg/mL
CCC[CH2][Sn+3].[S-]C(=Nc1ccccc1Cl)N/N=C(\c1ccccc1)c1ccccn1		ATCC 22019	52.24 µM
CCCCCCCCCCCC(=O)NCCCCN		ATCC 22019	64 µg/mL
CN1C(=O)CS/C1=N/NC(=O)c1cn2ccccc2n1		ATCC 22019	64 µg/mL
O=C(CCn1ccnc1)c1ccc(Br)cc1		RTCC 1079	64 µg/mL
C/C1=C\C(=O)c2c(C)coc2C/C(C)=C/CC1		ATCC 22019	>256 µg/mL
OC(CCn1ccnc1)c1cccc(C(O)c2ccc(Cl)c(Cl)c2)c1		RTCC 1018	>64 µg/mL
O=C(/C=C/c1cc(Cl)ccc1Cl)c1c[nH]c2ccccc12		NRRL Y-12696	25 µg/mL
CCOc1ccc2nc3cc(N=C4NC(=O)/C(=C\C=C\c5ccc([N+](=O)[O-])o5)S4)ccc3c(N)c2c1			750 µg/mL

Repeating the final 4 entries:

| SMILES | setting | strain | result |
|---|---|---|---|
| C/C1=C\C(=O)c2c(C)coc2C/C(C)=C/CC1 |  | ATCC 22019 | >256 µg/mL |
| OC(CCn1ccnc1)c1cccc(C(O)c2ccc(Cl)c(Cl)c2)c1 |  | RTCC 1018 | >64 µg/mL |
| O=C(/C=C/c1cc(Cl)ccc1Cl)c1c[nH]c2ccccc12 |  | NRRL Y-12696 | 25 µg/mL |
| CCOc1ccc2nc3cc(N=C4NC(=O)/C(=C\C=C\c5ccc([N+](=O)[O-])o5)S4)ccc3c(N)c2c1 |  |  | 750 µg/mL |